Source: patent US20240182531A1, “KV1.3 Blockers” (priority 2021, published 2024)

T1: human Kv1.2 potassium ion channel (human), P16389
T1 chain: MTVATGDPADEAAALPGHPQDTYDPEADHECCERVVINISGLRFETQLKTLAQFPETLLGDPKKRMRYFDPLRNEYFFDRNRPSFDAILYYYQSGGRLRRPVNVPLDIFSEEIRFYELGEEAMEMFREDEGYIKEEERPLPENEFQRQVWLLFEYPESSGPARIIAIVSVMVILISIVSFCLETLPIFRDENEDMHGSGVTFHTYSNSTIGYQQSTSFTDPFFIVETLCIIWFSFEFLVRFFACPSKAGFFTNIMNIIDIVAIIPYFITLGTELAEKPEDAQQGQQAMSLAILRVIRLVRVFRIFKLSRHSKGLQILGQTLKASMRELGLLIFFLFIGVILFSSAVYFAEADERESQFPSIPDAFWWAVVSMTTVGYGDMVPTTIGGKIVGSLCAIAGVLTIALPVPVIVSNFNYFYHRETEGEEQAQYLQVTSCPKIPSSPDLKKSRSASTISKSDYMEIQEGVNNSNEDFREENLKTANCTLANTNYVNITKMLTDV


Biological target: T1, human Kv1.2 potassium ion channel …
Assay: cell-based or functional assay

| Binder | Selectivity Kv1.2/Kv1.3 | Potency IC50 (nM) Kv1.2 [nM] |
| --- | --- | --- |
| MDMRCSASVECKQKCLKAIGSIFGKCMNKKCKCYPR (modifications not checked) [Cpd No. 18] | 747 |  |
| NMDMRCSASVECKQKCLAIGSIFGKCMNKKCKCYPR (modifications not checked) [Cpd No. 58] | 121 |  |
| NMDMRCSASVECKQKCLKAIESIFGKCMNKKCKCYPR (modifications not checked) [Cpd No. 27] | 615 |  |
| NMDMRCSASVECKQKCLKAIGSIFGKCMNKKCKCYPR (modifications not checked) [Cpd No. 17] | 1540 | 409 |
| NIDMRCSASVECKQKCLKAIGSIFGKCMNKKCKCYPR (modifications not checked) [Cpd No. 19] | 857 |  |
| NMDMRCSASVECKQKCLYAIGSIFGKCMNKKCKCYPR (modifications not checked) [Cpd No. 57] | 514 |  |
| NMDMRCSASVECAQKCLKAIGSIFGKCMNKKCKCYPR (modifications not checked) [Cpd No. 34] | 4900 |  |
| NMDMRCSASVECLQKCLKAIGSIFGKCMNKKCKCYPR (modifications not checked) [Cpd No. 33] | 2160 |  |
| NMDMRCSASVECKQKCLAAIGSIFGKCMNKKCKCYPR (modifications not checked) [Cpd No. 56] | 803 | 88 |
| NMDMRCSISVECKQKCLKAIGSIFGKCMNKKCKCYPR (modifications not checked) [Cpd No. 30] | 169 | 43 |
| NMDMRCSASVECKQKCLKAYGSIFGKCMNKKCKCYPR (modifications not checked) [Cpd No. 61] | 426 |  |
| NMDMRCSASVECKEKCLKAIGSIFGKCMNKKCKCYPR (modifications not checked) [Cpd No. 35] | 648 |  |
| NMDMRCSASVECKQKCLKAIGSIFGKCMNKKCHCYPR (modifications not checked) [Cpd No. 41] | 1820 |  |
| NMEMRCSASVECKQKCLKAIGSIFGKCMNKKCKCYPR (modifications not checked) [Cpd No. 20] | 2090 |  |
| NMDMRCSASVECKQKCLKAIGSIFGKCMNGKCKCYPR (modifications not checked) [Cpd No. 40] | 1420 |  |
| CSASVECKQKCLKAIGSIFGKCMNKKCKCYPR (modifications not checked) [Cpd No. 106] | 878 |  |

Biological target: human Kv1.3 (potassium voltage-gated channel subfamily A member 3) (human), P22001
Assay: cell-based or functional assay

| Binder | Potency IC50 (nM) Kv1.3 [nM] | anti-CD3 PBMC/IL-2 IC50 [nM] |
| --- | --- | --- |
| MDMRCSASVECKQKCLKAIGSIFGKCMNKKCKCYPR (modifications not checked) [Cpd No. 18] | 0.38 |  |
| NMDMRCSASVECKQKCLKAIESIFGKCMNKKCKCYPR (modifications not checked) [Cpd No. 27] | 0.29 |  |
| NMDMRCSASVECKQKCLKAIGSIFGKCMNKKCKCYPR (modifications not checked) [Cpd No. 17] | 0.27 | 0.06 |
| NIDMRCSASVECKQKCLKAIGSIFGKCMNKKCKCYPR (modifications not checked) [Cpd No. 19] | 0.44 |  |
| NMDMRCSASVECKQKCLYAIGSIFGKCMNKKCKCYPR (modifications not checked) [Cpd No. 57] | 0.29 |  |
| NMDMRCSASVECAQKCLKAIGSIFGKCMNKKCKCYPR (modifications not checked) [Cpd No. 34] | 0.14 |  |
| NMDMRCSASVECLQKCLKAIGSIFGKCMNKKCKCYPR (modifications not checked) [Cpd No. 33] | 0.4 |  |
| NMDMRCSASVECKQKCRKAIGSIFGKCMNKKCKCYPR (modifications not checked) [Cpd No. 55] | 0.25 |  |
| NMDMRCSASVECKQKCLAAIGSIFGKCMNKKCKCYPR (modifications not checked) [Cpd No. 56] | 0.11 |  |
| NMDMRCSASVECKLKCLKAIGSIFGKCMNKKCKCYPR (modifications not checked) [Cpd No. 36] | 0.38 |  |
| NMDMRCSASVECKQKCYKAIGSIFGKCMNKKCKCYPR (modifications not checked) [Cpd No. 54] | 0.27 |  |
| NMDMRCSISVECKQKCLKAIGSIFGKCMNKKCKCYPR (modifications not checked) [Cpd No. 30] | 0.26 |  |
| NMDMRCSASVECKQKCLKYIGSIFGKCMNKKCKCYPR (modifications not checked) [Cpd No. 59] | 0.12 |  |
| NMDMRCSASVECKQKCLKAYGSIFGKCMNKKCKCYPR (modifications not checked) [Cpd No. 61] | 0.34 |  |
| NMDMRCSASVECKEKCLKAIGSIFGKCMNKKCKCYPR (modifications not checked) [Cpd No. 35] | 0.28 |  |
| NMDMRCSASVECKQKCLKAIGSIFGKCMNKKCHCYPR (modifications not checked) [Cpd No. 41] | 0.19 |  |
| NMEMRCSASVECKQKCLKAIGSIFGKCMNKKCKCYPR (modifications not checked) [Cpd No. 20] | 0.11 |  |
| NMDMRCSASVECKQKCLKAIGSIFGKCMNGKCKCYPR (modifications not checked) [Cpd No. 40] | 0.31 |  |
| CSASVECKQKCLKAIGSIFGKCMNKKCKCYPR (modifications not checked) [Cpd No. 106] | 2.09 |  |
